Anti-infective test results gathered from many reports (values: NIAID ChemDB through PubChem).

All rows: tests in culture; agent: HIV-1; method: luminescence; measure: EC50

Blank or dashed fields: not listed here. Lines come from different laboratories, so protocols vary. ECn: concentration that inhibits the pathogen or its effect by n%.

structure | changes | cell line | strain or isolate | result
Cc1ncc(-c2cnc(OCC(C)C)c(F)c2)c(N2CCC3(CCC3)CC2)c1[C@H](OC(C)(C)C)C(=O)O |  | MT-2 | NL4-3 | 123.2 µM
COc1ccc(NC(=O)/C=C/c2ccc3cccc(OC)c3n2)cc1 |  | TZM-bl | VB59 | 10.38 µM
Clc1ccc2nc(/C=C/c3ccc4ccccc4c3)cc(Cl)c2c1 |  | TZM-bl | UG070 | 25.98 µM
COc1cccc2ccc(/C=C/C(=O)Nc3ccccc3)nc12 |  | TZM-bl | VB59 | 24.13 µM
COC(=O)N[C@H](C(=O)N[C@@H](Cc1ccc(C#Cc2ccc(N3C[C@@H]4C[C@H]3CN4C3COC3)nc2)cc1)[C@@H](O)CN(Cc1c(F)cc(-c2nnc(C)o2)cc1F)NC(=O)[C@@H](NC(=O)OC)C(C)(C)C(F)(F)F)C(C)(C)C(F)(F)F |  | MT-4 | IIIB | 0.01013 µM
Clc1ccc2nc(/C=C/c3ccc(OCc4ccccc4)cc3)cc(Cl)c2c1 |  | TZM-bl | UG070 | 95.25 µM
COc1cccc2ccc(/C=C/C(=O)Nc3ccccc3F)nc12 |  | TZM-bl | UG070 | 2.57 µM
CN(c1ncc(Cc2cnc(N(C)C3CCN(Cc4ccccc4)CC3)nc2)cn1)C1CCN(Cc2ccccc2)CC1 |  | H9 | NL4-3 | 6.63 µM
C#C[C@]1(CO)O[C@@H](n2cnc3c(N)nc(F)nc32)C[C@@H]1OC(=O)OCC | gp160 M184V | U373-CD4-CXCR4 | NL4-3 | 0.1852 µM
O=C(NCc1c(F)cc(F)cc1F)c1cn2c(c(O)c1=O)C(=O)N[C@H]1CCCC[C@H]12 |  | MT-4 | IIIB | 0.0022 µM
COc1cc(-c2nnc(-c3ccc4cccc(OC)c4n3)o2)cc(OC)c1OC |  | TZM-bl | VB59 | >100 µM
C#C[C@]1(CO)O[C@@H](n2cnc3c(NC(=O)CCCCCCCCCCCCC)nc(F)nc32)C[C@@H]1O | gp160 M184V | U373-CD4-CXCR4 | NL4-3 | 0.0074 µM
CC1(C)CC=C(c2cn(-c3nccc(C(=O)NC4CCC(N5CC6CCC(C5)O6)CC4)n3)c3ccc(F)c([C@H](OC(C)(C)C)C(=O)O)c23)CC1 | G140S/Q148H/N155H | MT-4 | NL4-3 | 0.0053 µM
COc1ccccc1-c1nnc(-c2ccc3cccc(OC)c3n2)o1 |  | TZM-bl | UG070 | 61.98 µM
COC(=O)N[C@H](C(=O)NN(Cc1c(F)cc(-c2cnccn2)cc1F)C[C@H](O)[C@H](Cc1ccc(C#Cc2ccc(N3CC4CCC(C3)N4C3COC3)nc2C)cc1)NC(=O)[C@@H](NC(=O)OC)C(C)(C)C(F)(F)F)C(C)(C)C |  | MT-4 | IIIB | 0.00404 µM
CCCCOc1ccc(-c2cnc(C)c([C@H](OC(C)(C)C)C(=O)O)c2N2CCC3(CCCC3)CC2)nc1 |  | MT-2 | NL4-3 | 4.5 µM
Cc1cc(C(O)CNC(C)CCn2cnc3c2c(=O)n(C)c(=O)n3C)ccc1O |  | H9 | NL4-3 | 7.96 µM
Cc1nc2ccccc2c(-c2cc(F)c3c(c2C)CCCO3)c1[C@H](OC(C)(C)C)C(=O)O | T174I | MT-4 | NL4-3 | 7.27 µM
COC(=O)N[C@H](C(=O)N[C@@H](Cc1ccc(C#Cc2ccc(N3CC4COCC(C3)N4C)nc2)cc1)[C@@H](O)CN(Cc1c(F)cc(-c2ccn(CC(F)F)n2)cc1F)NC(=O)[C@@H](NC(=O)OC)C(C)(C)C(F)(F)F)C(C)(C)C(F)(F)F |  | MT-4 | IIIB | 0.00232 µM
Cc1ccc(N=Cc2cc3ccccc3nc2Nc2ccc(C)cc2)cc1 |  | TZM-bl | UG070 | >130 µM
Clc1ccc2nc(/C=C/c3cccc4ccccc34)cc(Cl)c2c1 |  | TZM-bl | UG070 | 58.53 µM
COc1ccc(-c2nnc(-c3ccc4cccc(OC)c4n3)o2)cc1 |  | TZM-bl | VB59 | 45.09 µM
O=C1CN(C(=O)c2cc(-c3cc(F)cc(OC(F)F)c3)n(-c3ccnc(Cl)c3)n2)CCN1 | K103N/Y181C | MT-4 | NL4-3 | 1.138 µM
Cn1nc(NS(C)(=O)=O)c2c(Cl)ccc(-n3c([C@H](Cc4cc(F)cc(F)c4)NC(=O)Cn4nc(C(F)F)c5c4C(F)(F)[C@@H]4C[C@H]54)nc4cc(-c5ccc(F)c(C(=O)O)c5)ccc4c3=O)c21 |  | MT-2 | NL4-3 | 10 µM
COC(=O)N[C@H](C(=O)N[C@@H](Cc1ccc(-c2ccc(N3CC4CCC(C3)N4C3COC3)nc2)cc1)[C@@H](O)CN(Cc1c(F)cc(-c2ccc(N3CC4CCC(C3)N4C3COC3)nc2)cc1F)NC(=O)[C@@H](NC(=O)OC)C(C)(C)C(F)(F)F)C(C)(C)C(F)(F)F |  | MT-4 | IIIB | 0.00967 µM
C[C@H]1CO[C@@H]2Cn3cc(C(=O)NCc4ccc(F)cc4F)c(=O)c(O)c3C(=O)N12 | 3'-PPT mutations | TZM-bl | LAI | 0.00037 µM
Cc1cc(C)cc(Oc2nccn3c(=O)[nH]nc23)c1 |  |  |  | 35 µM
COc1cc2c(cc1Cc1cccc(Cl)c1F)c(=O)c(C(=O)O)cn2[C@H](CO)C(C)C |  | TZM-bl | LAI | 0.00075 µM
CCC1(C)CCN(c2c(-c3ccc(OCCc4ccc(F)cc4)cn3)cnc(C)c2[C@H](OC(C)(C)C)C(=O)O)CC1 |  | MT-2 | NL4-3 | 0.6 µM
Clc1ccc2nc(/C=C/c3ccc4c(c3)OCO4)cc(Cl)c2c1 |  | TZM-bl | UG070 | 102 µM
Cc1ncc(-c2ccc(OCC3CCOC3)cn2)c(N2CCC3(CCCC3)CC2)c1[C@H](OC(C)(C)C)C(=O)O |  | MT-2 | NL4-3 | 7.6 µM
COc1cccc2ccc(-c3nnc(-c4ccc(C(F)(F)F)cc4)o3)nc12 |  | TZM-bl | UG070 | 121 µM
Cc1ncc(-c2ccc(OCC(C)C)cn2)c(N2CCC3(CCCC3)CC2)c1[C@H](OC(C)(C)C)C(=O)O |  | MT-2 | NL4-3 | 6.7 µM
O=C1NC(=O)c2cc([N+](=O)[O-])c(Sc3c(Cl)cccc3Cl)cc21 |  |  |  | 70 µM
Cc1ncc(-c2ccc(OCCC3CCOCC3)cn2)c(N2CCC3(CCCC3)CC2)c1[C@H](OC(C)(C)C)C(=O)O |  | MT-2 | NL4-3 | 1 µM
Clc1cc(/C=C/c2ccc3c(c2)OCO3)nc2ccccc12 |  | TZM-bl | UG070 | 72.32 µM
CCC1(C)CCN(c2c(-c3ccc(OCCOC(C)C)cn3)cnc(C)c2[C@H](OC(C)(C)C)C(=O)O)CC1 |  | MT-2 | NL4-3 | 2.9 µM
C#C[C@]1(COCOC(=O)C(C)C)O[C@@H](n2cnc3c(N)nc(F)nc32)C[C@@H]1O | gp160 M184V | U373-CD4-CXCR4 | NL4-3 | 0.498 µM
Cc1ncc(-c2ccc(OCC(C)C)cn2)c(N2CCC(C)(C#N)CC2)c1[C@H](OC(C)(C)C)C(=O)O |  | MT-2 | NL4-3 | 6.5 µM
CCc1ccc(-c2cn([C@H]3C[C@H]4C(=O)N[C@@H](Cc5c[nH]c6ccccc56)C(=O)N[C@H](C(N)=O)CCCCNC(=O)C[C@H](N)C(=O)N[C@@H](CC(N)=O)C(=O)N[C@@H]([C@@H](C)CC)C(=O)N4C3)nn2)cc1 |  | HOS-CD4-CCR5 | BaL | 1.9 µM